In article PMC7509637 (Advanced Science, 2020):

Tests used:
Aβ fibrils = assay: AFM of fibrils, FiberApp statistical analysis
Protocol: Aβ incubated in the presence or absence of FapCS, FapC monomers, FapC fibrils or bLgS were subjected to TEM imaging. After incubation for 12 h, a drop of sample was applied on a glow‐discharged carbon‐coated copper grid. After 1 min, the sample was blotted and then negatively stained with uranyl acetate (1%) for 30 s. The dried grid was then imaged with a Technei F20 TEM at 200 kV. For AFM, a drop of sample was placed on freshly cleaved mica surface and rinsed with water after 2 min and dried with pressurized air. The sample was scanned with an AFM (Nanoscope VIII Multimode Scanning Force Microscopes, Bruker), covered with an acoustic hood to minimize the vibrational noise. Images were acquired under the tapping mode with a silicon nitride cantilever (Bruker). AFM images were processed with Nanoscope Analysis 1.5 software to flatten the background and to calculate the statistical parameters.

[1] = X-ray diffraction on oriented fibrils; conditions: Figure S9; for intersheet distance: equatorial reflection; for interstrand distance: meridional reflection

Molecule | pitch size of fibrils (Aβ fibrils; FiberApp) [nm] | fibril diameter (Aβ fibrils; from fibril heights, mean ± SD) [nm] | intersheet distance [1] [Å] | interstrand distance [1] [Å]
amyloid beta [Aβ] | 43 | 5.1 ± 1.0 | 9.6 | 4.7
FapC fibrils: FapC incubated in deionized water at 37 °C for 1 week, nonsonicated fibrils (protein) GNEGGWHPPKPNPQSNNKGGATALVVDTQQNYNNKVSNFGTLNNASVSGSIKDASGNVGVNVAAGDNNQQANAAALASADASFVFGTATASTSVLQSGYGNTLNNYSNPNTASLSNSANNVSGNLGVNVAAGNFNQQKNDLAAAVSNGQYSTAGSAASQTSTGNTTVNSANYAYGGTYVSLKLNADGSYKGTSDQIGDVYLDTWEGQTHPGGSNTGHIDVDSQAQGAKDLNHDGGAFAFKEKGDVDLKGTVSGFIPAIVGFKTPVTNNASLSNSLQNVSGNVGVNIAAGGGNQQSNSLSIAAGCSSCPAGGESLGF |  |  | 9.6 | 4.7
